PubChem BioAssay AID504761, Drosophila RNAi Screening Center | 2011
Screen: 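Genome-wide fly cell screen for genes dengue virus requires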 (primary screen). Cells: D.Mel-2 cells from Drosophila. Knock-down reagent: long dsRNA against Drosophila genes. Treatment: infection with dengue virus type 2; dose and infection time not stated. Measurement: 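Per well on two replicate plates, imaging gave the percent of cells positive for viral envelope protein, ranked by infection, and a nuclear count of cells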. Direction: infection score: higher = more virus-infected cells; cell count: higher = more cells in the well. Call rule: 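Very low infection ranking in both replicate wells (chance probability at most 0.065), then a retest showing infection dropped 1.5-fold or more at p below 0.05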. Calls: active = confirmed: knock-down lowers infection; inactive = not picked or not confirmed.
The screen tested about 22,000 reagents; shown is a random part of those that have a named target and a result. In the full data, 116 (0.52%) were called active. 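Calls depend on retest data that are not deposited; infection was ranked per plate without normalising between plates; the unit of the infection score is not given.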 Raw values vary from plate to plate and are shown uncorrected. A plus sign joins genes that one reagent is predicted to hit. The record does not give: the amount of reagent, the time to read-out.

| target gene | DRSC id | infection score, replicate 1 | infection score, replicate 2 | cell count, replicate 1 | cell count, replicate 2 | activity call |
| --- | --- | --- | --- | --- | --- | --- |
| mamo (maternal gene required for meiosis) | DRSC19370 | 1.13 | 1.42 | 6722 | 6254 | inactive |
| mamo (maternal gene required for meiosis) | DRSC29723 | 11.2 | 12.9 | 6094 | 5951 | inactive |
| CG13000 | DRSC19519 | 16.1 | 6.14 | 4863 | 6306 | inactive |
| CG13000 | DRSC25279 | 18.6 | 13 | 6086 | 6146 | inactive |
| Blos3 | DRSC09573 | 12.1 | 0.81 | 6191 | 6290 | inactive |
| CG14177 (retired record) | DRSC10176 | 3.51 | 2.19 | 6009 | 6836 | inactive |
| CG14177 (retired record) | DRSC27883 | 8.51 | 13.5 | 6677 | 6183 | inactive |
| Ars2 (Arsenic resistance protein 2) | DRSC04893 | 63 | 39.8 | 3940 | 4542 | inactive |
| dib (disembodied) | DRSC08711 | 7.87 | 5.78 | 5808 | 5969 | inactive |
| dib (disembodied) | DRSC26980 | 7.56 | 1.93 | 6189 | 6573 | inactive |
| Idh (Isocitrate dehydrogenase) | DRSC10779 | 9.33 | 11.8 | 5486 | 5101 | inactive |
| CG5388 | DRSC15789 | 2.37 | 5.73 | 6974 | 5967 | inactive |
| CG11694 | DRSC14354 | 7.36 | 4.93 | 7106 | 6769 | inactive |
| CG11694 | DRSC24061 | 1.05 | 1.43 | 7027 | 6867 | active |
| CG17249 | DRSC08517 | 13.1 | 20.3 | 6052 | 5594 | inactive |
| CG33463 | DRSC22915 | 4.67 | 5.65 | 6763 | 7245 | inactive |
| CG33463 | DRSC29923 | 20.1 | 10.2 | 6430 | 6314 | inactive |
| CG14341 | DRSC00371 | 0.61 | 5.29 | 6257 | 6316 | inactive |
| dec (defective chorion) | DRSC18759 | 5.72 | 4.89 | 5681 | 5769 | inactive |
| dec (defective chorion) | DRSC21477 | 3.66 | 3.77 | 6614 | 6682 | inactive |
| dec (defective chorion) | DRSC27935 | 22.6 | 30.3 | 5391 | 5108 | inactive |
| dor (deep orange) | DRSC18765 | 1.5 | 4.95 | 5336 | 6226 | inactive |
| dor (deep orange) | DRSC27554 | 7.78 | 7.75 | 6503 | 6546 | inactive |
| ITP (Ion transport peptide) | DRSC04222 | 6.43 | 7.51 | 6038 | 6642 | inactive |
| mRpL23 (mitochondrial ribosomal protein L23) | DRSC08307 | 8.75 | 14.9 | 5202 | 5236 | inactive |
| CG12436 (retired record) | DRSC09869 | 2.67 | 2.14 | 6107 | 6315 | inactive |
| CG12436 (retired record) | DRSC09885 | 0.73 | 0.69 | 5513 | 5679 | inactive |
| CG12436 (retired record) | DRSC26831 | 6.64 | 13.7 | 4685 | 6316 | inactive |
| Moca-cyp | DRSC15364 | 10.4 | 28.1 | 6209 | 5117 | inactive |
| Moca-cyp | DRSC25515 | 4.86 | 6.06 | 6542 | 6456 | inactive |
| sp3 (spermathreecae) | DRSC16354 | 1.53 | 0.45 | 5930 | 6471 | inactive |
| ND-B16.6 (NADH dehydrogenase (ubiquinone) B16.6 subunit) | DRSC18306 | 4.85 | 2.77 | 6064 | 6425 | inactive |
| ND-B16.6 (NADH dehydrogenase (ubiquinone) B16.6 subunit) | DRSC22600 | 8.28 | 8.11 | 6002 | 6572 | inactive |
| ND-B16.6 (NADH dehydrogenase (ubiquinone) B16.6 subunit) | DRSC26200 | 16.5 | 15.4 | 5315 | 5840 | inactive |
| CG8891 | DRSC03120 | 13.8 | 4.19 | 4914 | 6467 | inactive |
| CG8891 | DRSC28308 | 7.03 | 4.54 | 1948 | 2293 | inactive |
| CG8578 | DRSC20114 | 9.4 | 3.69 | 6552 | 5970 | inactive |
| LSm7 (Like Sm 7) | DRSC02251 | 9.77 | 17.9 | 5058 | 5132 | inactive |
| aust (australin) | DRSC02558 | 4.73 | 4.76 | 6151 | 6512 | inactive |
| aust (australin) | DRSC26019 | 7.2 | 2.72 | 6518 | 6313 | inactive |
| sgl (sugarless) | DRSC21431 | 2.61 | 4.9 | 6049 | 6554 | inactive |
| sgl (sugarless) | DRSC29308 | 1.02 | – | 295 | 285 | inactive |
| CR13656 (pseudo) | DRSC13705 | 0.03 | 0.08 | 6068 | 6266 | inactive |
| CR13656 (pseudo) | DRSC14656 | 1.67 | 6.65 | 6299 | 6360 | inactive |
| Ir25a (Ionotropic receptor 25a) | DRSC00462 | 24.3 | 22.1 | 6681 | 6637 | inactive |
| Ir25a (Ionotropic receptor 25a) | DRSC26910 | 10.4 | – | 6772 | – | inactive |
| TwdlL (TweedleL) | DRSC16042 | 6.75 | 3.34 | 6296 | 6642 | inactive |
| Orai | DRSC22061 | 2.8 | 0.99 | 6387 | 6635 | inactive |
| Lcp65Ag3 (Larval cuticle protein) | DRSC10345 | 3.09 | 18.2 | 5575 | 5531 | inactive |
| BomS4 (Bomanin Short 4) | DRSC22509 | 1.18 | 11.1 | 5858 | 6581 | inactive |
| CG15617 | DRSC06570 | 10.5 | 10.9 | 6713 | 5262 | inactive |
| CG15617 | DRSC27918 | 8.07 | 3.46 | 2714 | 6700 | inactive |
| CG17618 (retired record) + CG45049 | DRSC16163 | 0.8 | 6.79 | 6470 | 5420 | inactive |
| CG17618 (retired record) + CG45049 | DRSC23175 | 1.24 | 14.8 | 5880 | 4962 | inactive |
| CG14195 | DRSC19550 | 4.66 | 3.95 | 5924 | 6687 | inactive |
| Nup35 (Nucleoporin 35kDa) | DRSC19999 | 1.76 | 2.15 | 6829 | 6452 | inactive |
| GstE13 (Glutathione S transferase E13) | DRSC06083 | 2.95 | 16.2 | 6438 | 6702 | inactive |
| Polr2B (RNA polymerase II subunit B) | DRSC16831 | 48 | 45.1 | 2350 | 2849 | inactive |

Look-ups from above.
Result of CG12436 (retired record) [DRSC09885] under “cell count, replicate 2”: 5679
Entry of CG14195 [DRSC19550] under “cell count, replicate 1”: 5924
For “cell count, replicate 1”, LSm7 (Like Sm 7) [DRSC02251] shows 5058
Value of dor (deep orange) [DRSC18765] under “infection score, replicate 2”: 4.95
Under “infection score, replicate 2”, CG12436 (retired record) [DRSC09869] shows 2.14
Polr2B (RNA polymerase II subunit B) [DRSC16831], infection score, replicate 2 → 45.1
